Compound potency records, mixed from different reports. Data source: NIAID ChemDB in PubChem.

Shared fields: tests in culture; species: Mycobacterium tuberculosis

a–b is a range or a potency band. Blank or dashed fields: not listed here. ECn is the concentration giving n% inhibition of infection, replication or growth. MIC50, MIC90 and the like: level of inhibition, or share of isolates inhibited. Lines come from different laboratories, so protocols vary. MIC bound comes from a single tested concentration. Percent inhibition refers to the dose given; in toxicity tests it is the harm to the cells.

smiles,read-out,cell line,mutations,tested at,strain,read by,value
Cc1cccc(C(N)=Nc2nc(-c3ccccn3)cc3ccccc23)c1,MIC,-,-,-,J-3147,-,1 µg/mL
COc1ccc(-c2noc(C3=CC4(CCN(CC5CCCO5)CC4)c4ccccc43)n2)cc1,EC80,-,-,-,ss18b,resazurin,>200 µM
CC1(C)CC2(C)OC(=O)c3ccccc3N2C(=S)N1,inhibition,-,-,12.5 µg/mL,H37Rv,BACTEC,2%
NC1CCN(CCCCn2ccc(Nc3ccc(COCCNCC4CC4)cn3)nc2=O)CC1,EC50,-,-,-,H37Rv,turbidity,≥1 µM
Cc1[nH]c(C)c(CN2CCOCC2)c1CN1CCOCC1,MIC,-,-,-,103471,-,>64 µg/mL
C/C=C1/C(=O)O[C@]23C=C[C@@H]4C(C(=O)OC)=CO[C@H](O[C@@H]12)[C@@H]43,MBC,-,-,-,H37Rv,MTT,3.6 µg/mL
CC1Cn2c(nc3ccccc32)NC1=O,MIC bound,-,-,-,H37Rv,resazurin,>6.25 µg/mL
COc1ccc(Cc2nn3cc(C45CC6CC(CC(C6)C4)C5)nc3s2)cc1,MIC,-,-,-,H37Rv,resazurin,32.7 µM
CCCCCCn1c(C)c(CN2CCN(C)CC2)c(CN2CCN(C)CC2)c1C,MIC,-,-,-,103471,-,>64 µg/mL
Cc1cc(N=C(N)N)ccc1-c1ccc(-c2ccc(N=C(N)N)cc2C)o1,inhibition,-,-,12.5 µg/mL,-,-,2%
C=C1C(=O)O[C@@H]2C(O)[C@@H](C)[C@@H]3C=CC(=O)[C@@]3(C)[C@H](OC(=O)C=C(C)C)[C@H]12,inhibition,-,-,12.5 µg/mL,H37Rv,BACTEC,60%
N#Cc1ccn2c(-c3ccc(Cl)cc3)c(-c3ccc(Cl)cc3)c(Br)c2c1,inhibition,VERO,-,6.25 µg/mL,H37Rv,-,100%
NC1CCN(CCCCn2ccc(Nc3ccc(C(=O)NC4CNC4)cn3)nc2=O)CC1,EC50,-,-,-,H37Rv,turbidity,<0.5 µM
C1CCNCC1.S=C(S)N1CCCCC1,MIC,-,-,-,PAS-R,-,0.8 µg/mL
c1ccc(Oc2cccc(-c3cc(-c4ccccc4)no3)c2)cc1,inhibition,-,-,1 µg/mL,H37Rv,-,100%
S=c1nc[nH][nH]1,MIC,-,-,-,My 331/88,-,500 µM
O=C(O)c1nccnc1C(=O)O,MIC,-,-,-,H37Rv,BACTEC,≥12.5 µg/mL
Cc1c(CN2CCN(C)CC2)c(CN2CCN(C)CC2)c(-c2ccc(Cl)cc2)n1Cc1ccccc1,MIC,-,-,-,103471,-,>64 µg/mL
COc1ccc(-c2noc(C3=CC4(CCN(CCO)CC4)c4ccccc43)n2)cc1,MIC,-,-,-,H37Rv,resazurin,12 µM
CCC(O)c1c(-c2ccccc2)c(-c2ccccc2)n2ccc(C#N)cc12,MIC,-,-,-,H37Rv,-,>6.25 µg/mL
NC(=O)c1cnccn1,MIC,-,-,-,ATCC 27294,resazurin,203 µM
NCCC[C@H](N)CC(=O)N[C@H]1CNC(=O)[C@H]([C@H]2C[C@H](O)NC(N)=N2)NC(=O)/C(=C/NC(N)=O)NC(=O)[C@H](CO)NC(=O)[C@H](CO)NC1=O,MIC,-,-,-,-,-,4 µg/mL
Cc1oc2c(C)c3oc(=O)cc(C)c3cc2c1CCl,inhibition,-,-,12.5 µg/mL,H37Rv,BACTEC,98%
NNC(=O)c1ccccc1Br,MIC50,-,-,-,ATCC35801,-,65.9 µg/mL
c1cc(CSc2ncn[nH]2)cc(-c2nn[nH]n2)c1,MIC,-,-,-,My 331/88,-,>500 µM
CCn1cc(C(=O)O)c(=O)c2cc(F)c(N3CCN(C)CC3)cc21,MIC50,-,-,-,-,-,8 µg/mL
O=c1cc(-c2ccccc2)oc2ccc(-c3ccccc3-c3cc(=O)c4ccccc4o3)cc12,MIC,-,-,-,-,-,>12.5 µg/mL
Brc1cccc(CSc2ncn[nH]2)c1,MIC,-,-,-,My 331/88,-,500 µM
COc1cc(N=C(N)N)ccc1-c1ccc(-c2ccc(N=C(N)N)cc2OC)o1,inhibition,-,-,12.5 µg/mL,-,-,0%
Cc1ccc(-c2noc(C3=CC4(CCN(CC5CCCO5)CC4)c4ccccc43)n2)cn1,MIC,-,Ethambutol-resistant,-,17003,resazurin,1.56 µM
O=c1cc(-c2cccc(-c3cccc4c(=O)cc(-c5ccccc5)oc34)c2)oc2ccccc12,EC50,-,-,-,-,-,>12.5 µg/mL
NNC(=O)c1cn(C2CC2)c2cc(N3CCNCC3)c(F)cc2c1=O,MIC50,-,-,-,ATCC35801,-,36.4 µg/mL
COc1cccc(OC)c1[C@H]1[C@H]([N+](=O)[O-])C2CCCN2[C@@]12C(=O)Nc1ccccc12,MIC,-,-,-,H37Rv,agar,>25 µg/mL
N#Cc1ccn2c(-c3ccccc3)c(-c3ccccc3)c(Br)c2c1,inhibition,-,-,6.25 µg/mL,H37Rv,-,69%
COc1ccc(-c2noc(C3=CC4(CCN(CC(C)O)CC4)c4ccccc43)n2)cc1,MIC,-,-,-,H37Rv,resazurin,0.8 µM
COc1ccc2c(c1)[n+]([O-])c(S(=O)(=O)c1ccc(C)cc1)c(N)[n+]2[O-],MIC bound,-,-,-,H37Rv,BACTEC,≤12.5 µg/mL
Cc1ccc2c(c1)[n+]([O-])c(N)c(C#N)[n+]2[O-],MIC,-,-,-,H37Rv (ATCC 27294),resazurin,156.3 µM
Fc1ccc(CSc2ncn[nH]2)cc1F,MIC,-,-,-,My 331/88,-,1000 µM
N#Cc1c(N)[n+]([O-])c2ccccc2[n+]1[O-],MIC,-,-,-,H37Rv (ATCC 27294),resazurin,156.3 µM
c1ccc(Cc2nn3cc(C45CC6CC(CC(C6)C4)C5)nc3s2)cc1,MIC,-,-,-,H37Rv,resazurin,30.7 µM
CC(C)[C@@H]1C2[C@H](O)[C@@H]3[C@@H](C)CC[C@@H]4[C@@H](C)C[C@@H]1[C@]34C(=O)C2(C)C,inhibition,-,-,6.25 µg/mL,H37Rv,-,17%
O=C1C[C@@H](c2ccc(O)cc2)Oc2c1c(O)cc(O[C@@H]1O[C@H](CO)[C@@H](O)[C@H](O)[C@H]1O)c2[C@H]1C(=O)c2c(O)cc(O)cc2O[C@@H]1c1ccc(O)cc1,EC50,-,-,-,-,-,>12.5 µg/mL
N#Cc1ccn2c(-c3ccccc3)c(-c3ccccc3)c(C(O)c3ccccc3)c2c1,inhibition,VERO,-,6.25 µg/mL,H37Rv,-,100%
CN[C@@H]1[C@H](O[C@H]2[C@H](O[C@H]3[C@H](O)[C@@H](O)[C@H](N=C(N)N)[C@@H](O)[C@@H]3N=C(N)N)O[C@@H](C)[C@]2(O)C=O)O[C@@H](CO)[C@H](O)[C@H]1O,MIC,-,-,-,H37Rv,resazurin,5.3 µM
CS,MIC,-,-,-,H37Rv,-,0.01 µg/mL
COc1ccc(-c2cc(-c3cccc(Oc4ccccc4)c3)on2)cc1,inhibition,-,-,1 µg/mL,H37Rv,-,100%
Cc1cc(CN2CCN(C)CC2)c(C)[nH]1,MIC,-,-,-,103471,-,>64 µg/mL
CC(=O)Oc1ccc([C@@H]2CC(=O)c3c(cc(OC(C)=O)c(-c4c(OC(C)=O)cc5c(c4OC(C)=O)C(=O)C[C@@H](c4ccc(OC(C)=O)cc4)O5)c3OC(C)=O)O2)cc1,MIC,-,-,-,-,-,>12.5 µg/mL
CCC/C=C/C=C/C(=O)O[C@H]1[C@H](C)[C@@]2(O)[C@@H]3C=C(C)C(=O)[C@H]3CC(COC(C)=O)=C[C@@H]2[C@H]2C(C)(C)[C@@]12OC(C)=O,inhibition,-,-,12.5 µg/mL,H37Rv,BACTEC,8%
N[C@@H]1CONC1=O,MIC,-,-,-,-,-,10 µg/mL
Cc1nc(N)c2ncn([C@@H]3O[C@H](CO)[C@@H](O)[C@H]3O)c2n1,MIC,-,-,-,SRICK1 (AK-deficient),-,>50 µg/mL
O=C1C[C@@H](c2ccc(O)cc2)Oc2cc(O)c(-c3c(O)cc4c(c3O)C(=O)C[C@@H](c3ccc(O)cc3)O4)c(O)c21,MIC,-,-,-,-,-,>12.5 µg/mL
Cc1c(CN2CCOCC2)c(CN2CCOCC2)c(C)n1Cc1ccccc1,MIC,-,-,-,103471,-,>64 µg/mL
c1coc(-c2nn3cc(C45CC6CC(CC(C6)C4)C5)nc3s2)c1,MIC,-,-,-,H37Rv,resazurin,38.2 µM
COC1/C=C\C=C(/C)C(=O)Nc2cc3nc4cccc(Br)c4oc-3c(c2=O)CC(C)CC(OC)C(O)C(C)/C=C(\C)C1OC(N)=O,MIC,-,-,-,H37Rv,BACTEC,1.56 µg/mL
Cc1ccc(CS(=O)(=O)c2ncn[nH]2)cc1,MIC,-,-,-,My 331/88,-,>500 µM
CC[C@H]1C[C@@H]2CN3CCc4c([nH]c5ccccc45)[C@](C(=O)OC)(C2)[C@H]13,MIC bound,-,-,-,H37Rv,BACTEC,>12.5 µg/mL
NCCCOCc1ccc(Nc2ccn(CCCCN3CCC(N)CC3)c(=O)n2)nc1,EC50,-,-,-,H37Rv,turbidity,≥1 µM
COC(=O)c1c(C)ccc2c(O)c3c(cc12)C(=O)c1c2c(cc(O)c1C3=O)C1(C)OC(C)(O2)C(O)C(N(C)C)C1O,inhibition,-,-,12.8 µg/mL,H37Rv,BACTEC,98%
O=c1cc(-c2ccccc2-c2cccc3c(=O)cc(-c4ccccc4)oc23)oc2ccccc12,EC50,-,-,-,-,-,>12.5 µg/mL
NC1CCN(CCCCn2ccc(Nc3cc(CO)ccn3)nc2=O)CC1,EC50,-,-,-,H37Rv,turbidity,0.5–1 µM
S=C(S)N1CCC(CC2CCN(C(=S)S)CC2)CC1,MIC bound,-,-,-,H37Rv,BACTEC,>12.5 µg/mL
CO[C@H]1/C=C/O[C@@]2(C)Oc3c(C)c(O)c4c(O)c(c5c(c4c3C2=O)NC2(CCN(CC(C)C)CC2)N=5)=NC(=O)/C(C)=C\C=C\[C@H](C)[C@H](O)[C@@H](C)[C@@H](O)[C@@H](C)[C@H](OC(C)=O)[C@@H]1C,MIC,-,-,-,-,-,0.5 µg/mL
Cc1c(CN2CCOCC2)c(CN2CCOCC2)c(C)n1C1CCCCC1,MIC,-,-,-,103471,-,>64 µg/mL
N#Cc1ccn2c(-c3ccccc3)c(-c3ccccc3)c(C(O)C3CCCCC3)c2c1,inhibition,-,-,6.25 µg/mL,H37Rv,-,90%
N#CCC(=O)N/N=C1\C(=O)N(c2cc(Cl)ccc2Cl)C(=O)C(=O)C1c1nc2ccccc2s1,MIC bound,-,-,-,H37Rv,BACTEC,>12.5 µg/mL
CCCCCCCCCC(O)c1c(-c2ccccc2)c(-c2ccccc2)n2ccc(C#N)cc12,inhibition,-,-,6.25 µg/mL,H37Rv,-,0%
CSc1nc2c(c(=O)[nH]1)C1C=C(C)CCC1C(C)(C)C2,MIC bound,-,-,-,H37Rv,BACTEC,>12.5 µg/mL
c1ccc(CSc2ncn[nH]2)cc1,MIC,-,-,-,My 331/88,-,500 µM
Cc1[nH]c(-c2ccc(Cl)cc2)cc1CN1CCN(C)CC1,MIC,-,-,-,103471,-,8 µg/mL
C1=C(c2nc(-c3cccnc3)no2)c2ccccc2C12CCN(CC1CCCO1)CC2,MIC,-,Drug-resistant,-,Beijing (E-47/94),resazurin,0.78 µM
NCCCNC(=O)c1ccc(Nc2ccn(CCCCN3CCC(N)CC3)c(=O)n2)nc1,EC50,-,-,-,H37Rv,turbidity,<0.5 µM
Clc1cccc(CSc2ncn[nH]2)c1,MIC,-,-,-,My 331/88,-,1000 µM
c1cnn(P2(n3cccn3)=NP(n3cccn3)(n3cccn3)=NP(n3cccn3)(n3cccn3)=NP(n3cccn3)(n3cccn3)=NP(n3cccn3)(n3cccn3)=NP(n3cccn3)(n3cccn3)=N2)c1,inhibition,-,-,6.25 µg/mL,H37Rv,resazurin,-12%
O=[N+]([O-])c1cc(CSc2ncn[nH]2)cc([N+](=O)[O-])c1,MIC,-,-,-,My 331/88,-,62.5 µM
CC(=O)NNC(=S)N/C=C(\C#N)c1nc2ccccc2s1,MIC bound,-,-,-,H37Rv,BACTEC,>12.5 µg/mL
CN[C@@H]1[C@H](O[C@H]2[C@H](O[C@H]3[C@H](O)[C@@H](O)[C@H](N=C(N)N)[C@@H](O)[C@@H]3N=C(N)N)O[C@@H](C)[C@]2(O)C=O)O[C@@H](CO)[C@H](O)[C@H]1O,MIC,-,Spiroindene-resistant,-,H37Rv,turbidity,1 µM
CCOC(=O)c1c(C(C)=O)cnc2c(C#N)cnn12,MIC bound,-,-,-,H37Rv,resazurin,>6.25 µg/mL
Cc1cc(CN2CCOCC2)c(C)n1C1CCCCC1,MIC,-,-,-,103471,-,>64 µg/mL
CC(=O)Nn1c(N)nc2cc(C)ccc21,MIC bound,-,-,-,H37Rv,BACTEC,>12.5 µg/mL
CC1COc2c(N3CCN(C)CC3)c(F)cc3c(=O)c(C(=O)O)cn1c23,MIC50,-,-,-,-,-,0.5–1.3 µg/mL
Cc1cc(=O)[nH]c(N/N=C/c2ccc(N(C)C)cc2Cl)n1,inhibition,-,-,12.5 µg/mL,H37Rv,BACTEC,36%
NC1CCN(CCCCn2ccc(Nc3ccc(CNC4CCNCC4)cn3)nc2=O)CC1,EC50,-,-,-,H37Rv,turbidity,<0.5 µM
CC(C)(C)OC(=O)NCC(=O)NC1c2ccsc2/C(=N/O)[C@H]1O,inhibition,-,-,6.25 µg/mL,H37Rv,resazurin,-5%
CC(C)N=c1cc2n(-c3ccc(Cl)cc3)c3ccccc3nc-2cc1Nc1ccc(Cl)cc1,MIC,-,-,-,-,-,0.15 µg/mL

Again, the opening 6 rows:

smiles,read-out,cell line,mutations,tested at,strain,read by,value
Cc1cccc(C(N)=Nc2nc(-c3ccccn3)cc3ccccc23)c1,MIC,-,-,-,J-3147,-,1 µg/mL
COc1ccc(-c2noc(C3=CC4(CCN(CC5CCCO5)CC4)c4ccccc43)n2)cc1,EC80,-,-,-,ss18b,resazurin,>200 µM
CC1(C)CC2(C)OC(=O)c3ccccc3N2C(=S)N1,inhibition,-,-,12.5 µg/mL,H37Rv,BACTEC,2%
NC1CCN(CCCCn2ccc(Nc3ccc(COCCNCC4CC4)cn3)nc2=O)CC1,EC50,-,-,-,H37Rv,turbidity,≥1 µM
Cc1[nH]c(C)c(CN2CCOCC2)c1CN1CCOCC1,MIC,-,-,-,103471,-,>64 µg/mL
C/C=C1/C(=O)O[C@]23C=C[C@@H]4C(C(=O)OC)=CO[C@H](O[C@@H]12)[C@@H]43,MBC,-,-,-,H37Rv,MTT,3.6 µg/mL